# In article PMC4148451 (PLoS Pathogens, 2014):
# Target: T1, HIV-1 envelope glycoprotein gp140 (HIV-1 group M subtype B, isolate YU2, UniProt P35961)
# T1 construct: also called gp140-F; gp140-F immunogen
# Assay: ELISA
# Conditions: both partners purified
binder,measurement,value
"putative germline form of GE356 MAb (antibody, V domains shown, also called putative germline GE356; putative germline version of GE356) VH: QVQLVQSGAEVKKPGSSVKVSCKASGYTFTDYYMHWVRQAPGQGLEWMGEINPKTGGTNYAQKFQGRVTMTRDTSTSTAYMELSSLRSEDTAVYYCARGGQRLLLLRNYYFYYWGQGVLVTVSS VL: QSVLTQPPSVSGAPGQKVTISCTGSSSNIGGYDVHWYQQLPGTAPKLLIYDNNKRPSGISDRFSGSKSGTSASLAITGLQTEDEADYYCQSYDSSLNAWVFGGGTRLTVL",binding result,binds
